One test concerns toxin induced lethality. The test is described as follows: Toxin induced lethality, whole animal toxic shock model.
Another test concerns proximal kidney cells. The test is described as follows: Toxin-induced apoptosis of proximal kidney cells in vitro.
The nature of test [1]: Antibody production after in vivo administration of SEB peptide. The following applies: both IP and oral.

In the case of KKKVTAQELD, the toxin induced lethality result with toxin induced lethality is “reduced toxin induced lethality”. Moreover, the “toxin-induced apoptosis of proximal kidney cells” value in the test on proximal kidney cells is on record as “reduction in toxin-induced apoptosis of proximal kidney cells”. For the same sequence, the antibody production entry in test [1] is reported as “results in antibody production”.

Values taken from patent US20050191315A1 (priority 2002, published 2005).
